Pooled drug test results. Numbers come from NIAID ChemDB, via PubChem.

Shared fields: tests in culture; organism: HIV-1

ECn is the concentration giving n% inhibition of infection, replication or growth.

SMILES | cell line | method | strain or isolate | read-out | mutations | value
CCc1c(Cc2ccccc2C)n(COCC#Cc2ccccc2)c(=O)[nH]c1=O | MT-4 | MTT | IIIB | EC50 | EFV-resistant (K103R V179D P225H) | >26 µM
CC(=O)Sc1ccccc1C(=O)NCCC(N)=O | CEM | cytopathic effect / XTT | IIIB | EC50 | - | 0.6 µM
CCc1c(Cl)nc(Nc2ccc(C#N)cc2)nc1Oc1ccc2cc(Br)ccc2c1Br | MT-4 | MTT | IIIB | EC50 | WT | 17.11 µM
O=C1C=CC(=C(c2ccc(O)cc2)c2ccc(O)cc2)C=C1 | MT-4 | cytopathic effect / MTT | IIIB | EC50 | - | >100 µg/mL
COc1cccc(OC)c1C(=O)c1nc(N(C)C)nc(OC)c1C | MT-4 | MTT | IIIB | EC50 | Y181C | >8 µM
CC1(C)CC[C@H](O)[C@]2(C)[C@@H]1CC[C@@]13CC[C@@H](C[C@H]12)C([C@@H](O)CO)C3 | MT-4 | MTT | - | EC50 | - | >25 µg/mL
Cc1cn([C@H]2C[C@H](N=[N+]=[N-])[C@@H](CO)O2)c(=O)[nH]c1=O | MT-4 | MTT | RES056 | EC50 | - | 0.028 µM
CC(=O)Nc1cc(S(=O)(=O)O)c2cccc(S(=O)(=O)O)c2c1 | MT-4 | cytopathic effect / MTT | IIIB | EC50 | - | >414 µM
COc1nc(N(C)C)nc(C(C#N)c2c(F)cccc2F)c1C | C8166 | MTT | IIIB | EC50 | EFV-resistant (K103R V179D P225H) | >10 µM
O=C(O)/C=C/c1ccc(O)c(O)c1 | MOLT-4 | syncytia | IIIB | EC50 | - | 7 µg/mL
COc1cc(C(C#N)c2c(F)cccc2F)nc(N(C)C)n1 | MT-4 | MTT | IIIB | EC50 | Y181C | >40 µM
Cc1cn([C@@H]2O[C@H](CO[Si](C)(C)C(C)(C)C)[C@@]3(OS(=O)(=O)C([N+](=O)[O-])=C3N)[C@H]2O[Si](C)(C)C(C)(C)C)c(=O)n(C)c1=O | CEM | - | - | EC50 | - | 7 µM
O=C(CCCCCCCCCCC(=O)Nc1cc(S(=O)(=O)O)c2cccc(S(=O)(=O)O)c2c1)Nc1cc(S(=O)(=O)O)c2cccc(S(=O)(=O)O)c2c1 | MOLT-4/HIV-1(IIIB) + MOLT-4 | syncytia | IIIB | EC50 | - | 92.5 µM
O=C1c2c(O)c(=O)n([C@@H]3CCCC[C@H]3O)c(=O)n2CCN1Cc1ccc(F)cc1 | MT-4 | p24 | - | EC50 | - | <10 µM
CCc1c(Cc2cc(C)cc(C)c2)n(COCC#Cc2ccc(O)cc2)c(=O)[nH]c1=O | MT-4 | MTT | IIIB | EC50 | Y181C | 3 µM
C[C@@]12CCC(=O)[C@@](C)(COC(=O)c3ccccc3)[C@H]1CC[C@@]13CC[C@@H](C[C@H]12)C([C@@H](O)CO)C3 | MT-4 | MTT | - | EC50 | - | >25 µg/mL
CC(=O)c1c(C)nc(-c2ccccc2)nc1NC(=O)c1ccccc1 | HeLa | GFP / fluorescence | 1617-1 | EC50 | - | 0.3 µM
CC1(C)[C@H](O)CC[C@]2(C)[C@@H]1CC[C@@]13CC[C@@H](C[C@H]12)C([C@@H](O)CO)C3 | MT-4 | MTT | - | EC50 | - | >25 µg/mL
COc1cccc(F)c1C(=O)c1nc(N(C)C)nc(OC)c1C | C8166 | MTT | IIIB | EC50 | EFV-resistant (K103R V179D P225H) | >7.8 µM
CCOC(=O)c1cc(C(=O)c2ccc([N+](=O)[O-])cc2)n2ccc(C(=O)NCc3ccccn3)cc12 | H9 | p24 / antigen | - | EC50 | - | 20.5 µM
CCc1c(Cc2cc(C)cc(C)c2)n(COCc2cn(Cc3c(F)cccc3F)nn2)c(=O)[nH]c1=O | MT-4 | MTT | IIIB | EC50 | Y181C | 3.2 µM
CN1c2ccccc2C2C1C=C(C#N)C(=O)N2c1ccc([N+](=O)[O-])cc1 | PBMC | GFP / fluorescence | B-92US026 | EC50 | - | 1.42 µM
Cc1cn(CC(=O)Nc2ccc([N+](=O)[O-])cn2)c(=O)[nH]c1=O | TZM-bl | luciferase | VB59 | EC50 | - | 42.13 µM
Cc1cc(C)cc(Nn2cnc(C)c2-c2ccccc2)c1 | MT-4 | cytopathic effect / MTT | SO561945 (RT K103N Y181C) | EC50 | RT-K103N Y181C | >20.44 µM
CCc1c(Cl)nc(Nc2ccc(C#N)cc2)nc1Oc1ccc2cc(C#N)ccc2c1Br | MT-4 | MTT | IIIB | EC50 | K103N + Y181C | 49.33 µM
CCOC(=O)c1cc(C(=O)c2ccco2)n2ccc(C(=O)NCc3ccccn3)cc12 | H9 | p24 / antigen | - | EC50 | - | 48.7 µM
O=C(CCC(=O)Nc1ccc(Br)cn1)Nc1ccc(Br)cn1 | TZM-bl | luciferase | VB59 | EC50 | - | 98.13 µM
CCc1ccccc1N=C(Nn1c(C)nc2ccccc2c1=O)SC | MT-4 | MTT | IIIB | EC50 | - | 34.45 µg/mL
O=C(O)Cc1ccc(O)c(O)c1 | MT-4 | cytopathic effect / MTT | IIIB | EC50 | - | 8 µg/mL
CC(=O)c1ccc(C)cc1NC(C(N)=O)c1c(Cl)cccc1Cl | MT-4 | cytopathic effect / MTT | NDK | EC50 | - | 0.022 µM
Cc1ncn(Nc2ccccc2)c1-c1ccccc1 | MT-4 | cytopathic effect / MTT | IIIB | EC50 | - | ≥11.67 µM
CSC(=Nc1ccc(Br)cc1)Nn1c(C)nc2ccccc2c1=O | MT-4 | MTT | IIIB | EC50 | - | 2.66 µg/mL
CCc1c(Cc2ccccc2C)n(COCC#Cc2ccc(N)cc2)c(=O)[nH]c1=O | MT-4 | MTT | IIIB | EC50 | WT | 0.07 µM
Nc1ccn([C@@H]2CS[C@H](CO)O2)c(=O)n1 | MT-4 | MTT | IIIB | EC50 | - | 3.1 µM
Cc1cccc(O)c1O | MT-4 | cytopathic effect / MTT | IIIB | EC50 | - | 75 µg/mL
O=C(Cn1cnc2ccccc21)Nc1ccccn1 | TZM-bl | luciferase | UG070 | EC50 | - | 389 µM
NCC(NC(=O)c1ccc(-c2cc(F)c(Cl)c(F)c2)[nH]1)c1nc(CO)cs1 | PBMC | p24 / ELISA | NL4-3 | EC50 | - | 1.2 µM
CNc1cc(Oc2ccc3cc(Br)ccc3c2)nc(Nc2ccc(C#N)cc2)n1 | MT-4 | MTT | IIIB | EC50 | K103N + Y181C | >182 µM
Cc1[nH]c(=S)n(Nc2cccc([N+](=O)[O-])c2)c1-c1ccccc1 | MT-4 | cytopathic effect / MTT | SO561945 (RT K103N Y181C) | EC50 | RT-K103N Y181C | 42.18 µM
C=CCn1cc(COCn2c(Cc3cc(C)cc(C)c3)c(CC)c(=O)[nH]c2=O)nn1 | MT-4 | MTT | IIIB | EC50 | Y181C | 2.6 µM
CSC(=NCc1ccccc1)Nn1c(C)nc2ccccc2c1=O | MT-4 | MTT | IIIB | EC50 | - | 50.32 µg/mL
C=C1C[C@@]23CC[C@@H]4C(C)(C)C(=O)CC[C@@]4(C)[C@@H]2C[C@@H]1[C@@H](O)C3=O | MT-4 | MTT | - | EC50 | - | >25 µg/mL
CCCCCCCCCCCCOP(=O)([O-])OCC[NH2+]C | C8166 | antigen | - | EC50 | - | >100 µM
Cc1occc1C(=O)Nc1ccc(Cl)c(/C=N/N(C)C)c1 | CEM | syncytia | Nevirapine-resistant (RT V106A) | EC50 | RT-V106A | <2 µg/mL
CCc1cc(/C=C/C#N)cc(CC)c1-c1cccc2c(N)nc(Nc3ccc(C#N)cc3)nc12 | MT-4 | cytopathic effect / luminescence | HXB2 | EC50 | - | 0.0024 µM
CC(=O)Nc1cc(S(=O)(=O)O)cc2cc(S(=O)(=O)O)cc(O)c12 | MOLT-4/HIV-1(IIIB) + MOLT-4 | syncytia | IIIB | EC50 | - | >100 µM
CCc1c(Cl)nc(Nc2ccc(C#N)cc2)nc1Oc1ccc2cc(C#N)ccc2c1 | MT-4 | MTT | IIIB | EC50 | WT | 0.667 µM
CCCCCCCCCCCCCCCCCCOCCOP(=O)(CO[C@H](C)Cn1cnc2c(N)ncnc21)OC1CC1 | PBMC | luminescence | - | EC50 | - | 0.413 µM
CCOC(=O)c1cc(C(=O)c2ccc3ccccc3c2)n2ccc(C(=O)c3ccccc3)cc12 | H9 | p24 / antigen | - | EC50 | - | 36.1 µM
CSC(=Nc1ccc([N+](=O)[O-])cc1)Nn1c(C)nc2ccccc2c1=O | MT-4 | MTT | IIIB | EC50 | - | 1.56 µg/mL
Cc1cn([C@H]2C[C@H](N=[N+]=[N-])[C@@H](CO)O2)c(=O)[nH]c1=O | MT-4 | MTT | - | EC50 | - | 0.0086 µg/mL
Cc1[nH]c(=S)n(Nc2ccccc2Cl)c1-c1ccccc1 | MT-4 | cytopathic effect / MTT | SO561945 (RT K103N Y181C) | EC50 | RT-K103N Y181C | >162 µM
Cc1c(C(=O)c2c(F)cccc2F)nc(N(C)C)[nH]c1=O | C8166 | MTT | IIIB | EC50 | EFV-resistant (K103R V179D P225H) | >100 µM
Cc1c(Oc2ccnc(Nc3ccc(C#N)cc3)n2)ccc2ccccc12 | MT-4 | MTT | IIIB | EC50 | WT | 0.003 µM
CC(C)n1c(=O)c(O)c2n(c1=O)C(CCN(C)C(=O)c1ccccc1)CN(Cc1ccc(F)cc1)C2=O | MT-4 | p24 | - | EC50 | - | <10 µM
CCOC(=O)c1cc(C(=O)c2ccccc2)n2ccc(C(=O)NCc3ccc4ccccc4c3)cc12 | H9 | p24 / antigen | - | EC50 | - | 20.1 µM
CCc1c(Cc2cc(C)cc(C)c2)n(COCC#Cc2cccc(CO[Si](c3ccccc3)(c3ccccc3)C(C)(C)C)c2)c(=O)[nH]c1=O | MT-4 | MTT | IIIB | EC50 | K103N + Y181C | >100 µM
COC(=O)[C@H](C)NC(O)(Oc1ccccc1)Oc1nc(N(C)C)nc(C(C)c2c(F)cccc2F)c1C | MT-4 | MTT | - | EC50 | Y181C resistant | 1.2 µM
O=C(O)c1ccc(O)c(O)c1 | MOLT-4 | syncytia | IIIB | EC50 | - | 7 µg/mL
CC(C)(C)C1CCC(n2c(=O)c(O)c3n(c2=O)CCN(Cc2ccc(F)cc2)C3=O)CC1 | MT-4 | p24 | - | EC95 | - | <10 µM
CCc1c(Cl)nc(Nc2ccc(C#N)cc2)nc1Oc1ccc2ccccc2c1Cl | MT-4 | MTT | IIIB | EC50 | WT | 0.129 µM
O=C1c2c(O)c(=O)n(CCc3cccs3)c(=O)n2CCN1Cc1ccc(F)cc1 | MT-4 | p24 | - | EC50 | - | <10 µM
CCCCCCCCCCCCCCCCCCOP(=O)([O-])OCC[NH2+]C | C8166 | antigen | - | EC50 | - | 25 µM
O=C(CCC(=O)n1cnc2c([N+](=O)[O-])cccc21)n1cnc2c([N+](=O)[O-])cccc21 | TZM-bl | luciferase | VB59 | EC50 | - | 31.86 µM
Cc1c(C(O)c2c(F)cccc2F)nc(N(C)C)[nH]c1=O | MT-4 | MTT | IIIB | EC50 | Y181C | >50 µM

Blank or dashed fields: not listed here. Lines come from different laboratories, so protocols vary.